Results published in PMC11968175, “In vitro and in vivo neutralization of Dengue virus by a single domain antibody” (ImmunoHorizons, 2025).

Experiments:
Test in all cases: western blot
Conditions in all cases: one partner purified
[1] = biological target: envelope (E) protein of DenV3 (Dengue virus 3, strain  …, UniProt P27915)
[2] = biological target: envelope (E) protein of DenV1 (Dengue virus 1, strain  …, UniProt P17763)
[3] = biological target: envelope (E) protein of DenV4 (Dengue virus 4, strain  …, UniProt P09866)

Measured: binding result

B1: anti-DenV(E) single domain antibody (sdAb) (VHH)
VHH: QVQLVQSGGEVKKPGASVKVSCKASGYTFTNYGITWVRQAPGQGLEWMGWISAYNGYKSYAQNFQGRVTMTTDTFTSTAYMELRTLRSDDTAVYYCVRLVPKRTATLHYYIDVWGKGTTVTVST
notes: also called anti-DenV(E) sdAb; anti-DenV sdAb
binds: all assays above
